Data as given in paper PMC10696099.

Test system: CCn1c(=NN=c2sc3cc(S(=O)(=O)O)ccc3n2CC)sc2cc(S(=O)(=O)O)ccc21
Experiment: purified protein
Conditions: 100 mM sodium citrate pH 4.5, 37°C

Substance | Km | kcat | kcat/Km
CotA-laccase (Bacillus licheniformis DSM 13 = ATCC 14580) | 79 ± 5 µM | 15.4 s⁻¹ | 194000 M⁻¹ s⁻¹
CotA-laccase (Bacillus licheniformis DSM 13 = ATCC 14580; Q441A) | 52 ± 3 µM | 20.5 s⁻¹ | 392000 M⁻¹ s⁻¹
